One compound from patent US7067500B2, “Betaines as adjuvants to susceptibility testing and antimicrobial therapy” (priority 1997, dated 2006) can be followed below.

The structures appear in SMILES notation. Structures can show the parent of a compound that is named as a salt.

This data set has as its system Mycobacteria (acid fast bacilli: AFB). Particulars: CB-18 processing relative to NaOH.

As to `CCCCCCCCCCCCCCCCCC[N+](C)(C)CCCC(=O)[O-]` [CB-18, N-(3-carboxypropyl)-N,N-dimethyl-1-octadecanaminium, inner salt], the “increase in aggregate culture sensitivity” value was “approximately 46%”, the “increase in culture sensitivity among MOTT disease positive specimens” value is reported as 94.1% and the “reduction in culture sensitivity among MTB disease positive specimens” value is on record as 12.1%.
